Pooled drug test results. Numbers come from NIAID ChemDB, via PubChem.

Shared fields: growth or infection tests; species: Candida albicans

Lines come from different laboratories, so protocols vary.

| SMILES | tested at | read-out | read by | strain or isolate | setting | result |
|---|---|---|---|---|---|---|
| COc1ccc(C(Cc2ccccc2Cl)n2ccnc2)cc1 |  | Geometric mean MIC |  | 34 strains |  | 214 µg/mL |
| C[C@H]1[C@H](O)[C@@H](C)/C=C/C=C/C=C/C=C/C=C/C=C/C=C/[C@H](O[C@@H]2O[C@H](C)[C@@H](O)[C@H](N)[C@@H]2O)C[C@@H]2O[C@](O)(C[C@@H](O)C[C@@H](O)CC[C@H](O)[C@@H](O)C[C@@H](O)CC(=O)O[C@H]1C)C[C@H](O)[C@H]2C(=O)O |  | EC50 | broth dilution | 35 |  | 1 µM |
| COc1ccc(C(Cc2c(Cl)cccc2Cl)n2ccnc2)cc1 |  | Geometric mean MIC |  | 34 strains |  | 28.48 µg/mL |
| COc1cc(C=Nc2cccc(Cn3ccnc3)c2)cc(OC)c1OC |  | Mean MIC |  | 27 strains |  | 151 µg/mL |
| COc1ccc(C(=O)c2c(-c3ccc(OC)cc3)oc3ccc(C)cc23)cc1 |  | EC80 | broth dilution |  |  | >200 µg/mL |
| Cc1ccc(-c2c3c(N)c4c(nc3nc3c2c(C)nn3-c2ccccc2)CCC4)cc1 |  | MIC100 | broth dilution / absorbance | CCC 125 |  | 62.5 µg/mL |
| CCCCCCCCCn1cc[n+](COCCCCCCOC[n+]2ccn(CCCCCCCCC)c2)c1 |  | MIC100 | agar diffusion | ATCC 90028 |  | 8 µM |
| CCCCCCCCCCCC[N+](C)(C)COC1CCCCCC1 |  | MBC |  | ATCC 10231 |  | 26.6 µM |
| CCC(C)CCCCCCCCCCC(=O)N[C@H]1C[C@@H](O)[C@@H](S(=O)(=O)CC(=O)OC)NC(=O)C2[C@@H](O)[C@@H](C)CN2C(=O)C(CO)NC(=O)C([C@H](O)C(O)c2ccc(O)cc2)NC(=O)NC(=O)[C@@H]2C[C@@H](O)CN2C(=O)[C@H]([C@@H](C)O)NC1=O | 1 mg/mL | zone | agar | IV |  | 21 mm |
| Cc1ccc(-c2c3c(N)c4c(nc3nc3c2c(C)nn3-c2ccccc2)CCCC4)cc1 |  | MIC100 | broth dilution / absorbance | CCC 127 |  | 31.2 µg/mL |
| CCCCCCCCCCCC[N+](C)(C)COCC |  | MBC |  | ATCC 10231 |  | 162 µM |
| CCCCCCCCCCn1cc[n+](COCCCCCOC[n+]2ccn(CCCCCCCCCC)c2)c1 |  | MIC100 | agar diffusion | ATCC 90028 |  | 4 µM |
| Nc1ncccc1-c1cc(Cc2ccc(COc3ccccn3)cc2)no1 |  | MIC50 | broth dilution |  |  | <0.008 µg/mL |
| CCCCCCCCCCCC[N+](C)(C)CSCCCC |  | MBC |  | ATCC 10231 |  | 1420 µM |
| COc1ccc(-c2oc3ccc(C)cc3c2C(=O)c2cc(O)cc(OC)c2)cc1 |  | EC80 | broth dilution |  |  | >200 µg/mL |
| CCCCCCCCCCCC[N+](C)(C)COCCCCCCC |  | MBC |  | ATCC 10231 |  | 26.4 µM |
| CCC(C)CCCCCCCCCCC(=O)N[C@H]1C[C@@H](O)[C@@H](NCCN2CCOCC2)NC(=O)C2[C@@H](O)[C@@H](C)CN2C(=O)C(CO)NC(=O)C([C@H](O)C(O)c2ccc(O)cc2)NC(=O)NC(=O)[C@@H]2C[C@@H](O)CN2C(=O)[C@H]([C@@H](C)O)NC1=O | 2 mg/mL | zone | agar | IV |  | 13 mm |
| Nc1[nH]c(=O)ncc1F |  | Geometric mean MIC |  | 5 isolates fluconazole-susceptible |  | 0.223 µg/mL |
| O=C(Nc1cccc(Cn2ccnc2)c1)c1ccc([N+](=O)[O-])cc1 |  | Mean MIC |  | 27 strains |  | 200 µg/mL |
| CCCCCCCC[N+](C)(C)COC1CCCCCCCCCCC1 |  | MBC |  | ATCC 10231 |  | 256 µM |
| CCC(C)CCCCCCCCCCC(=O)N[C@H]1C[C@@H](O)[C@@H](Sc2ccccc2)NC(=O)C2[C@@H](O)[C@@H](C)CN2C(=O)C(CO)NC(=O)C([C@H](O)C(O)c2ccc(O)cc2)NC(=O)NC(=O)[C@@H]2C[C@@H](O)CN2C(=O)[C@H]([C@@H](C)O)NC1=O | 5 mg/mL | zone | agar | IV |  | 18 mm |
| S=C(S)n1nnc2ccccc21 |  | EC50 | broth dilution / absorbance | ATCC 10231 | 48 h | >50 µg/mL |
| C[C@H]1[C@H](O)[C@@H](C)/C=C/C=C/C=C/C=C/C=C/C=C/C=C/[C@H](O[C@@H]2O[C@H](C)[C@@H](O)[C@H](N)[C@@H]2O)C[C@@H]2O[C@](O)(C[C@@H](O)C[C@@H](O)CC[C@H](O)[C@@H](O)C[C@@H](O)CC(=O)O[C@H]1C)C[C@H](O)[C@H]2C(=O)O |  | Geometric mean MIC |  | 5 isolates fluconazole-susceptible |  | 0.5 µg/mL |
| O=C(Nc1ccc(Cn2ccnc2)cc1)c1ccc(Cl)cc1 |  | Mean MIC |  | 27 strains |  | 200 µg/mL |
| CCCCCOc1ccc(-c2ccc(-c3ccc(C(=O)N[C@H]4C[C@@H](O)[C@@H](O)NC(=O)[C@@H]5[C@@H](O)[C@@H](C)CN5C(=O)[C@H]([C@H](C)O)NC(=O)[C@H]([C@H](O)[C@@H](O)c5ccc(O)cc5)NC(=O)[C@@H]5C[C@@H](O)CN5C(=O)[C@H]([C@H](C)O)NC4=O)cc3)cc2)cc1 |  | MFC90 |  | 10 strains (fluconazole- itraconazole-susceptible) |  | 0.5 µg/mL |
| COc1ccc(-c2oc3ccc(C)cc3c2C(=O)c2cc(F)c(F)cc2Br)cc1 |  | EC80 | broth dilution |  |  | >200 µg/mL |
| CCC(C)n1ncn(-c2ccc(N3CCN(c4ccc(OC[C@H]5CO[C@](Cn6cncn6)(c6ccc(Cl)cc6Cl)O5)cc4)CC3)cc2)c1=O |  | MIC | broth dilution | 10 isolates | pH 7 | 0.03 µg/mL |
| Cc1nn(-c2ccccc2)c2nc3nc4c(c(N)c3c(-c3ccc(Cl)cc3)c12)CCC4 |  | MIC100 | broth dilution / absorbance | ATCC 10231 |  | >250 µg/mL |
| C[C@H]1[C@H](O)[C@@H](C)/C=C/C=C/C=C/C=C/C=C/C=C/C=C/[C@H](O[C@@H]2O[C@H](C)[C@@H](O)[C@H](N)[C@@H]2O)C[C@@H]2O[C@](O)(C[C@@H](O)C[C@@H](O)CC[C@H](O)[C@@H](O)C[C@@H](O)CC(=O)O[C@H]1C)C[C@H](O)[C@H]2C(=O)O |  | MIC80 |  | TIMM3317 (azole-resistant) |  | 0.13 µg/mL |
| C[C@@H](c1ncncc1F)[C@](O)(Cn1cncn1)c1ccc(F)cc1F |  | EC90 | broth dilution | 10 isolates | pH 4 | >16 µg/mL |
| CCCCCn1cc[n+](COCCCCCOC[n+]2ccn(CCCCC)c2)c1 |  | MIC100 | agar diffusion | ATCC 90028 |  | 168 µM |
| CCCCCCCCCCCC[N+](C)(C)CSCCC |  | MBC |  | ATCC 10231 |  | 296 µM |
| CCCCCCCn1cc[n+](COCCCOC[n+]2ccn(CCCCCCC)c2)c1 |  | MIC100 | agar diffusion | ATCC 90028 |  | 158 µM |
| COc1ccc(-c2oc3ccc(C)cc3c2C(=O)c2ccc(O)cc2)cc1 |  | EC80 | broth dilution |  |  | >200 µg/mL |
| CCn1cc[n+](COCCCCCCOC[n+]2ccn(CC)c2)c1 |  | MIC100 | agar diffusion | ATCC 90028 |  | 1634 µM |
| CC[C@@H]([C@H](C)O)n1ncn(-c2ccc(N3CCN(c4ccc(OC[C@@H]5CO[C@@](Cn6cncn6)(c6ccc(F)cc6F)C5)cc4)CC3)cc2)c1=O |  | EC90 | broth dilution | 15 isolates | pH 5 | 0.03 µg/mL |
| C[C@H]1[C@H](O)[C@@H](C)/C=C/C=C/C=C/C=C/C=C/C=C/C=C/[C@H](O[C@@H]2O[C@H](C)[C@@H](O)[C@H](N)[C@@H]2O)C[C@@H]2O[C@](O)(C[C@@H](O)C[C@@H](O)CC[C@H](O)[C@@H](O)C[C@@H](O)CC(=O)O[C@H]1C)C[C@H](O)[C@H]2C(=O)O |  | MFC99 |  | A28200 |  | 0.5 µg/mL |
| CCCCCCCCCCSC[N+](C)(C)CCCCCCCC |  | MBC |  | ATCC 10231 |  | 132 µM |
| Cc1ccc(-c2c3c(N)c4c(nc3nc3c2c(C)nn3-c2ccccc2)CCCCC4)cc1 |  | MIC80 | broth dilution / absorbance | CCC 126 |  | 62.5 µg/mL |
| Clc1ccc(C(Cn2ccnc2)OCc2csc3c(Cl)cccc23)c(Cl)c1 |  | MIC90 | absorbance | 63 isolates | 24 h | 2 µg/mL |
| CCC(C)CC(C)CCCCCCCCC(=O)N[C@H]1C[C@@H](O)[C@H](NCCN)NC(=O)[C@@H]2[C@@H](O)CCN2C(=O)[C@H]([C@H](O)CCN)NC(=O)[C@H]([C@H](O)[C@@H](O)c2ccc(O)cc2)NC(=O)[C@@H]2C[C@@H](O)CN2C(=O)[C@H]([C@@H](C)O)NC1=O |  | EC90 | broth dilution | 15 isolates | pH 5 | 0.06 µg/mL |
| CCCCCCCCCCCC[N+](C)(C)COCCCCC |  | MBC |  | ATCC 10231 |  | 28.6 µM |
| COc1ccc(C(Cc2ccc(F)cc2)n2ccnc2)cc1 |  | Geometric mean MIC |  | 34 strains |  | 66.66 µg/mL |
| O=C(Nc1ccccc1Cn1ccnc1)c1ccc(F)cc1 |  | Mean MIC |  | 27 strains |  | 112.5 µg/mL |
| C=CCc1ccc(O)c(OC)c1 |  | MIC90 | turbidity | ATCC 10261 |  | 480 µg/mL |
| C[n+]1ccn(COCCCCCCOCn2cc[n+](C)c2)c1 |  | MIC100 | agar diffusion | ATCC 90028 |  | 1634 µM |
| CCC(C)CCCCCCCCCCC(=O)N[C@H]1C[C@@H](O)[C@@H](NCCN2CCOCC2)NC(=O)C2[C@@H](O)[C@@H](C)CN2C(=O)C(CO)NC(=O)C([C@H](O)C(NCCN2CCOCC2)c2ccc(O)cc2)NC(=O)NC(=O)[C@@H]2C[C@@H](O)CN2C(=O)[C@H]([C@@H](C)O)NC1=O | 2 mg/mL | zone | agar | IV |  | 17 mm |

The last 4 rows once more:

SMILES | tested at | read-out | read by | strain or isolate | setting | result
O=C(Nc1ccccc1Cn1ccnc1)c1ccc(F)cc1 |  | Mean MIC |  | 27 strains |  | 112.5 µg/mL
C=CCc1ccc(O)c(OC)c1 |  | MIC90 | turbidity | ATCC 10261 |  | 480 µg/mL
C[n+]1ccn(COCCCCCCOCn2cc[n+](C)c2)c1 |  | MIC100 | agar diffusion | ATCC 90028 |  | 1634 µM
CCC(C)CCCCCCCCCCC(=O)N[C@H]1C[C@@H](O)[C@@H](NCCN2CCOCC2)NC(=O)C2[C@@H](O)[C@@H](C)CN2C(=O)C(CO)NC(=O)C([C@H](O)C(NCCN2CCOCC2)c2ccc(O)cc2)NC(=O)NC(=O)[C@@H]2C[C@@H](O)CN2C(=O)[C@H]([C@@H](C)O)NC1=O | 2 mg/mL | zone | agar | IV |  | 17 mm

Zones are inhibition diameters on agar. A number after MIC or MFC names an inhibition level or a share of isolates. Blank or dashed fields: not listed here. ECn is the concentration giving n% inhibition of infection, replication or growth.